B1: Luk17-His-SA (designed binder)
chain: MLPAPKNLVVSRVTEDSARLSWTAPDAAFDSFWITYEEKFYRGEAIVLTVPGSERSYDLTGLKPGTEYKVWIVGVKGGQGSWPLSAIFTTGGHHHHHHGGGLNDIFEAQKIEWHE
B2: TENCON-His-SA (designed binder)
chain: MLPAPKNLVVSRVTEDSARLSWTAPDAAFDSFLIQYQESEKVGEAIVLTVPGSERSYDLTGLKPGTEYTVSIYGVKGGHRSNPLSAIFTTGGHHHHHHGGGLNDIFEAQKIEWHE
notes: also called parental control FN3 domain protein

Assays:
[1] = molecular target: T1, LukAB^mut3 stem domain mutant variant (S. aureus, UniProt Q2FFA2 31-351; P21224 30-338); assay: BLI, FN3 protein on streptavidin pins, LukAB variant at 10 ug/mL
T1 sequence 1: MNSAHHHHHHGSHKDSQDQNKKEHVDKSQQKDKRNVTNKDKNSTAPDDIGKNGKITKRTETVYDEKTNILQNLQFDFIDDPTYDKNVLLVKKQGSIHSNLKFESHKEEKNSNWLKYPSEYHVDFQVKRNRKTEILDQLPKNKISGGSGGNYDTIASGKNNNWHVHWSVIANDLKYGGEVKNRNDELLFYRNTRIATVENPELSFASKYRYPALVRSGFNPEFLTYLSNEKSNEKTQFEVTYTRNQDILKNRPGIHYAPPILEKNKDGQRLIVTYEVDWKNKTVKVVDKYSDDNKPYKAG
T1 sequence 2: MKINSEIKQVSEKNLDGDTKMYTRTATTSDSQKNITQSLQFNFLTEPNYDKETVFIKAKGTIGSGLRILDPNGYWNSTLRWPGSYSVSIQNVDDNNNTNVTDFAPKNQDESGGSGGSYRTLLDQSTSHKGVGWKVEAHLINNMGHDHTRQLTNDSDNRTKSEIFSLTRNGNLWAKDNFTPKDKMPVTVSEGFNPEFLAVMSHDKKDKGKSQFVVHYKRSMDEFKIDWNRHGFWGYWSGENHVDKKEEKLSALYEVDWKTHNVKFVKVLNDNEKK

[2] = molecular target: T1, LukAB^mut3 stem domain mutant variant; assay: BLI, FN3 protein on streptavidin pins, LukAB variant in solution

Binder | binding result [1] | binding result [2]
B1 | binds | 
B2 |  | no binding (tested: 10 ug/mL)
